{
  "sequences": {"note": "By UniProt entry, the sequences of proteins in these tests, tags left out.", "UniProt P9WPC9, whole entry": "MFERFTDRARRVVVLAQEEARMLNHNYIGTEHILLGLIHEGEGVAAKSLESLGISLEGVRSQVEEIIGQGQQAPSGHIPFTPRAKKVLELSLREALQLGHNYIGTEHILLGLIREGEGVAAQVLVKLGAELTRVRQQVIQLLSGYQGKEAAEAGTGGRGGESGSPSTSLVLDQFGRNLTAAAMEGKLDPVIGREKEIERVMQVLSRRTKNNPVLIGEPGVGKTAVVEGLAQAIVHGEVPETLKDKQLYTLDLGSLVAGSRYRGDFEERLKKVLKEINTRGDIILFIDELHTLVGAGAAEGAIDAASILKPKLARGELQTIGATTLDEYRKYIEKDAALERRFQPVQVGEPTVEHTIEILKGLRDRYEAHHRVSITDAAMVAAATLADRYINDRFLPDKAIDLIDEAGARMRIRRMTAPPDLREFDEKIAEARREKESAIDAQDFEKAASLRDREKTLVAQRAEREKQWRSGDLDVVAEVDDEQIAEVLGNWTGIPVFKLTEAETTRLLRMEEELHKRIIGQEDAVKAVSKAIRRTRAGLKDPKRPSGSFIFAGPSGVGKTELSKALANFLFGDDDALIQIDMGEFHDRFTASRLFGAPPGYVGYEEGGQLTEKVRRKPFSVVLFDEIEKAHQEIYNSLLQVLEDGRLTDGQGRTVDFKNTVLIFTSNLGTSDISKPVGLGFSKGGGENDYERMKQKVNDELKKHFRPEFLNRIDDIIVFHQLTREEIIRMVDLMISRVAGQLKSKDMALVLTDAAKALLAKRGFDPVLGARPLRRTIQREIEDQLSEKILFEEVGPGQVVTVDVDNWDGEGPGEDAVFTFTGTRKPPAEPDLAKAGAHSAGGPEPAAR"},
  "source": "patent US9925251B2",
  "about": "“Treatments for Mycobacterium tuberculosis” (priority 2011, dated 2018)",
  "target": "ClpC1 ATPase (Mycobacterium tuberculosis, UniProt P9WPC9)",
  "type": "biochemical",
  "data": [
    {"substance": "casein", "values": [
      {"measurement": "stimulation of ClpC1 ATPase activity", "value": 2, "unit": "fold"}
    ]}
  ]
}
